Anti-infective test results gathered from many reports (values: NIAID ChemDB through PubChem).

All rows: growth or infection tests; species: Coxsackie virus; read by: cytopathic effect; read-out: EC50

ECn: concentration that inhibits the pathogen or its effect by n%. Blank or dashed fields: not listed here. Lines come from different laboratories, so protocols vary.

structure,cells,strain,result
NC1=Nn2c(nnc2-c2cn(-c3ccccc3)nc2-c2ccccc2)SC1,VERO,TYPE B4,>16 µg/mL
CC=NC(=N)c1nc(-c2ccccc2)n(C/C=C/c2ccccc2)n1,VERO,TYPE B4,>4 µg/mL
CC1(C)[C@@H](CO)CC[C@@]1(C)Cn1cc(Br)c(=O)[nH]c1=O,VERO,TYPE B4,>400 µg/mL
Nc1ncnc2c1ncn2[C@@H]1C=C(CO)[C@@H](O)[C@H]1O,HeLa,TYPE B4,>40 µg/mL
Nc1nc(Cl)c2ncn([C@H]3CO[C@@H](CO)C3)c2n1,VERO,TYPE B4,>400 µg/mL
O=C(CCBr)N1CC[N+]2(CC1)CC[N+]1(CCN(C(=O)CCBr)CC1)CC2,HeLa,B3,>70 µg/mL
OCCOCn1c(SCc2ccccn2)nc2ccccc21,HEL,B4,>100 µg/mL
C#C[C@H](O)C1=C[C@@H](n2cnc3c(N)ncnc32)[C@H](O)[C@@H]1O,HeLa,TYPE B4,>100 µg/mL
Cc1ccc(C(=O)CCCCCCOc2ccc(C3=NCCO3)cc2)s1,VERO,TYPE B5,>26.95 µM
N#Cc1cncc([C@@H]2O[C@H](CO)[C@H](O)[C@@H]2O)c1,HeLa,TYPE B4,≥100 µg/mL
Nc1nc(Cl)c2ccn([C@H]3CO[C@@H](CO)C3)c2n1,HeLa,TYPE B4,>200 µg/mL
O=C(Nn1c(-c2cn(-c3ccccc3)nc2-c2ccccc2)n[nH]c1=S)c1ccccc1,HeLa,TYPE B4,48 µg/mL
CN(C)c1ccc(Cc2ccc(S(C)(=O)=O)cn2)cc1,HeLa,TYPE A21,>10 µg/mL
Nc1ncnc2c1ncn2[C@@H]1C=C(CF)[C@H](O)[C@H]1O,HeLa,TYPE B4,>200 µg/mL
CC[C@H](O)C1=C[C@@H](n2cnc3c(N)ncnc32)[C@H](O)[C@@H]1O,HeLa,TYPE B4,>100 µg/mL
CC=NC(=N)c1nc(-c2ccc(C)cc2)n(COCCO)n1,HeLa,TYPE B4,>200 µg/mL
CC1(C)[C@@H](CCO)C[C@H]1n1cnc2c(=O)[nH]c(N)nc21,VERO,TYPE B4,>400 µg/mL
CC(Sc1ncnc2c1cnn2COCC(O)CO)C(N)=O,HeLa,TYPE B4,>400 µg/mL
CC1(CO)CCC(Cn2nnc3c(Cl)nc(N)nc32)C1(C)C,HeLa,TYPE B4,>400 µg/mL
NC(=S)c1cncc([C@@H]2O[C@H](CO)[C@@H](O)[C@@H]2O)c1,VERO,TYPE B4,≥100 µg/mL
C=C(N=CC)c1nc(-c2ccccc2)n(C2O[C@H](CO)[C@@H](O)[C@H](O)[C@H]2O)n1,HeLa,TYPE B4,>200 µg/mL
NC(=O)c1cncc([C@H]2O[C@H](CO)[C@@H](O)[C@@H]2O)c1,HeLa,TYPE B4,≥100 µg/mL
OC[C@H]1O[C@@H](n2c(SCc3ccccn3)nc3ccccc32)[C@H](O)[C@@H]1O,HEL,B4,>100 µg/mL
S=c1[nH]n2c(-c3cn(-c4ccccc4)nc3-c3ccccc3)nnc2s1,VERO,TYPE B4,>80 µg/mL
CS(=O)(=O)c1ccc(Cc2ccccc2)nc1,HeLa,TYPE A21,>10 µg/mL
CCOC(=O)CSc1nnc(-c2cn(-c3ccccc3)nc2-c2ccccc2)n1N,VERO,TYPE B4,>16 µg/mL
CCS(=O)(=O)c1cccnc1Oc1ccc(C(=O)c2ccccc2)cc1,HeLa,TYPE A21,>10 µg/mL
NC1CSCON2CCc3c([nH]c4ccccc34)[C@H]12,VERO,TYPE B4,0.4 µg/mL
[N-]=[N+]=N[C@H]1[C@@H](F)[C@H](N2C=CC(N)NC2=O)O[C@@H]1CO,VERO B,TYPE B4,>400 µg/mL
Nc1ncnc2c1ncn2[C@@H]1O[C@H](/C=N/O)[C@@H](O)[C@@H]1O,VERO,Strain B4,>40 µg/mL
CCN(CC)C(=O)N1CCN(c2ncnc(N3CC[N+]4(CC3)CC[N+]3(CCN(c5ncnc(N6CCN(C(=O)N(CC)CC)CC6)c5[N+](=O)[O-])CC3)CC4)c2[N+](=O)[O-])CC1,HeLa,B3,>70 µg/mL
CC1(C)[C@@H](CCO)C[C@H]1n1nnc2c(=O)[nH]c(N)nc21,HeLa,TYPE B4,200 µg/mL
O=c1[nH]n2c(-c3cn(-c4ccccc4)nc3-c3ccccc3)nnc2s1,HeLa,TYPE B4,48 µg/mL
CON=C1C[C@H](n2cc(C)c(=O)[nH]c2=O)O[C@@H]1CO,HeLa,-,>200 µg/mL
CCON=C[C@H]1O[C@@H](n2cnc3c(N)ncnc32)[C@H](O)[C@@H]1O,HeLa,B4,>200 µg/mL
C=C(N=CC)c1nc(-c2cccc(OC)c2)n(C2O[C@H](CO)[C@@H](O)[C@H](O)[C@H]2O)n1,HeLa,TYPE B4,>400 µg/mL
NC1CCCON2CCc3c([nH]c4ccccc34)[C@H]12,HeLa,TYPE B4,7 µg/mL
OCCOCn1c(CCc2ccccn2)nc2cc(Cl)c(Cl)cc21,HEL,B4,>100 µg/mL
CCC(Sc1ncnc2c1cnn2COCC(O)CO)C(N)=O,HeLa,TYPE B4,>400 µg/mL
Cc1ccc(C(=O)CCCCOc2ccc(C3=NCCO3)cc2)s1,VERO,TYPE B2,2.04 µM
Cc1cn([C@@H]2OC[C@H](CO)[C@H]2N=[N+]=[N-])c(=O)[nH]c1=O,HeLa,TYPE B4,>80 µg/mL
COCC1=C[C@@H](n2cnc3c(N)ncnc32)[C@H](O)[C@@H]1O,VERO,TYPE B4,>400 µg/mL
C#C[C@@H](O)C1=C[C@@H](n2cnc3c(N)ncnc32)[C@H](O)[C@@H]1O,HeLa,TYPE B4,>400 µg/mL
CC1(C)[C@@H](CO)CC[C@@]1(C)Cn1cnc2c(Cl)ncnc21,HeLa,TYPE B4,>400 µg/mL
Nc1ncnc2c1ncn2[C@@H]1O[C@H](CO)[C@@H](F)[C@H]1O,HeLa,TYPE B4,2 µg/mL
NC(=S)c1cncc([C@H]2O[C@H](CO)[C@@H](O)[C@@H]2O)c1,VERO,TYPE B4,≥100 µg/mL
O=[N+]([O-])c1c(N2CC[N+]3(CC2)CC[N+]2(CCNCC2)CC3)ncnc1N1CC[N+]2(CC1)CC[N+]1(CCNCC1)CC2,HeLa,B3,>70 µg/mL
CC1(CO)CCC(Cn2cnc3c(N)nc(N)nc32)C1(C)C,HeLa,TYPE B4,40 µg/mL
Nc1ncnc2c1ncn2C1CC(COP(=O)(O)O)[C@@H](O)[C@H]1O,VERO,TYPE B4,≥10 µg/mL
CS(=O)(=O)c1ccc(Oc2ccc(C(=O)c3ccccc3)cc2)nc1,HeLa,B3,<0.6 µg/mL
Cc1ccc(C(=O)CCCCOc2ccc(C3=NCC(C)O3)cc2)s1,VERO,TYPE B5,>28.01 µM
CC1(C)[C@@H](CO)CC[C@@]1(C)Cn1ccc(=O)[nH]c1=O,VERO,TYPE B4,>400 µg/mL
CS(=O)(=O)c1ccc(Cc2ccc(Sc3ccccc3)cc2)nc1,HeLa,TYPE A21,<0.6 µg/mL
Cc1ccc(C(=O)CCCCOc2ccc(C3=NC(C)(C)CO3)cc2)s1,VERO,TYPE B2,19.67 µM
CC1(C)[C@@H](CCO)C[C@H]1n1nnc2c(=O)[nH]cnc21,HeLa,TYPE B4,>200 µg/mL
CCS(=O)(=O)c1ccc(Cc2ccc(Cl)c(Cl)c2)nc1,HeLa,TYPE A21,1.3 µg/mL
Nc1ncnc2c1ncn2[C@@H]1O[C@H](C=O)C[C@H]1O,VERO,Strain B4,>200 µg/mL
CCOC(=O)c1cnc(SC)nc1N1CC[N+]2(CC1)CC[N+]1(CCN(c3nc(SC)ncc3C(=O)OCC)CC1)CC2,HeLa,B3,>70 µg/mL
Nc1nc2c(ncn2[C@H]2OC[C@@H](CO)C2O)c(=O)[nH]1,HeLa,TYPE B4,>80 µg/mL
CS(=O)(=O)c1ccc(Cc2ccc(Cl)c(Cl)c2)nc1,HeLa,TYPE A21,5 µg/mL
NC(=O)c1cncc([C@H]2O[C@H](CO)[C@H](O)[C@@H]2O)c1,VERO,TYPE B4,≥100 µg/mL
CC1(CO)CCC(Cn2cnc3c(=O)[nH]c(N)nc32)C1(C)C,HeLa,TYPE B4,>400 µg/mL
O=C1CSc2nnc(-c3cn(-c4ccccc4)nc3-c3ccccc3)n2N1,VERO,TYPE B4,>16 µg/mL
OC[C@H]1O[C@H](c2cncc(Br)c2)[C@@H](O)[C@@H]1O,HeLa,TYPE B4,≥100 µg/mL
Nc1ncnc2c1ncn2[C@@H]1C[C@H](CO)[C@@H](O)[C@H]1O,HeLa,TYPE B4,>4 µg/mL
COc1ccc2[nH]c3c(c2c1)CCN1OCSCC(N)[C@@H]31,HeLa,TYPE B4,0.02 µg/mL
CC1=Nn2c(nnc2-c2cn(-c3ccccc3)nc2-c2ccccc2)SC1,VERO,TYPE B4,>16 µg/mL
[N-]=[N+]=N[C@H]1[C@@H](F)[C@H](n2cnc3c(N)ncnc32)O[C@@H]1CO,HeLa,TYPE B4,300 µg/mL
Cc1ccc(C(=O)CCCCCCOc2ccc(C3=NCC(C)O3)cc2)s1,VERO,TYPE B2,>25.97 µM
CCC(Sc1ncnc2c1cnn2COCCO)C(N)=O,VERO,TYPE B4,>400 µg/mL
CC1(C)[C@@H](CO)CC[C@@]1(C)Cn1cnc2c(=O)[nH]cnc21,VERO,TYPE B4,>400 µg/mL
CS(=O)(=O)c1ccc(NCc2ccc(Cl)c(Cl)c2)nc1,HeLa,TYPE B3,>10 µg/mL
NC(=O)c1cncc([C@@H]2O[C@H](CO)[C@H](O)[C@@H]2O)c1,HeLa,TYPE B4,≥100 µg/mL
Nn1c(-c2cn(-c3ccccc3)nc2-c2ccccc2)n[nH]c1=S,VERO,TYPE B4,>16 µg/mL
Nc1ncnc2c1ncn2[C@H]1OC[C@@H](CO)C1O,VERO,TYPE B4,>80 µg/mL
Cc1cc(CCCCCCCOc2ccc(C3=NCCO3)cc2)on1,VERO,TYPE B2,14.1 µM
OC[C@H]1O[C@@H](n2c(CCc3ccccn3)nc3ccccc32)[C@H](O)[C@@H]1O,HEL,B4,>100 µg/mL
C=C(N=CC)c1nc(-c2ccc(OC)cc2)n([C@@H]2O[C@H](CO)[C@@H](O)[C@H]2O)n1,HeLa,TYPE B4,>400 µg/mL
Cc1nc(N2CC[N+]3(CC2)CC[N+]2(CCNCC2)CC3)c([N+](=O)[O-])c(N2CC[N+]3(CC2)CC[N+]2(CCNCC2)CC3)n1,HeLa,B3,>70 µg/mL
Nc1ncnc2c1ncn2[C@@H]1O[C@H](C=NOCc2ccccc2)[C@@H](O)[C@H]1O,HeLa,B4,>200 µg/mL
Cc1ccc(Cc2ccc(S(C)(=O)=O)cn2)cc1,HeLa,TYPE A21,>10 µg/mL

11 of the rows above, restated:

structure	cells	strain	result
Nc1ncnc2c1ncn2[C@@H]1C[C@H](CO)[C@@H](O)[C@H]1O	HeLa	TYPE B4	>4 µg/mL
NC1CSCON2CCc3c([nH]c4ccccc34)[C@H]12	VERO	TYPE B4	0.4 µg/mL
CCC(Sc1ncnc2c1cnn2COCC(O)CO)C(N)=O	HeLa	TYPE B4	>400 µg/mL
CCS(=O)(=O)c1cccnc1Oc1ccc(C(=O)c2ccccc2)cc1	HeLa	TYPE A21	>10 µg/mL
Nc1nc(Cl)c2ncn([C@H]3CO[C@@H](CO)C3)c2n1	VERO	TYPE B4	>400 µg/mL
NC1CCCON2CCc3c([nH]c4ccccc34)[C@H]12	HeLa	TYPE B4	7 µg/mL
Nc1nc(Cl)c2ccn([C@H]3CO[C@@H](CO)C3)c2n1	HeLa	TYPE B4	>200 µg/mL
Nc1ncnc2c1ncn2[C@@H]1O[C@H](C=O)C[C@H]1O	VERO	Strain B4	>200 µg/mL
CCS(=O)(=O)c1ccc(Cc2ccc(Cl)c(Cl)c2)nc1	HeLa	TYPE A21	1.3 µg/mL
NC(=O)c1cncc([C@@H]2O[C@H](CO)[C@H](O)[C@@H]2O)c1	HeLa	TYPE B4	≥100 µg/mL
Cc1cc(CCCCCCCOc2ccc(C3=NCCO3)cc2)on1	VERO	TYPE B2	14.1 µM